Measurements from patent US20230024461A1, “METHODS FOR DUAL DNA/PROTEIN TAGGING OF OPEN CHROMATIN” (Beth Israel Deaconess Medical Center, Inc., priority 2019, published 2023).

Tested on: HEK293T nuclei
Assay: iDAPT-MS quantitative mass spectrometry
Set-up: species or system human

B1: TP3: Tn5 transposase-AEAAAKEAAAKA linker-APEX2 peroxidase fusion, C-terminal FLAG; amino acid SEQ ID NO: 27 (protein)
chain: MITSALHRAADWAKSVFSSAALGDPRRTARLVNVAAQLAKYSGKSITISSEGSKAMQEGAYRFIRNPNVSAEAIRKAGAMQTVKLAQEFPELLAIEDTTSLSYRHQVAEELGKLGSIQDKSRGWWVHSVLLLEATTFRTVGLLHQEWWMRPDDPADADEKESGKWLAAAATSRLRMGSMMSNVIAVCDREADIHAYLQDKLAHNERFVVRSKHPRKDVESGLYLYDHLKNQPELGGYQISIPQKGVVDKRGKRKNRPARKASLSLRSGRITLKQGNITLNAVLAEEINPPKGETPLKWLLLTSEPVESLAQALRVIDIYTHRWRIEEFHKAWKTGAGAERQRMEEPDNLERMVSILSFVAVRLLQLRESFTPPQALRAQGLLKEAEHVESQSAETVLTPDECQLLGYLDKGKRKRKEKAGSLQWAYMAIARLGGFMDSKRTGIASWGALWEGWEALQSKLDGFLAAKDLMAQGIKIAEAAAKEAAAKAGKSYPTVSADYQDAVEKAKKKLRGFIAEKRCAPLMLRLAFHSAGTFDKGTKTGGPFGTIKHPAELAHSANNGLDIAVRLLEPLKAEFPILSYADFYQLAGVVAVEVTGGPKVPFHPGREDKPEPPPEGRLPDPTKGSDHLRDVFGKAMGLTDQDIVALSGGHTIGAAHKERSGFEGPWTSNPLIFDNSYFTELLSGEKEGLLQLPSDKALLSDPVFRPLVDKYAADEDAFFADYAEAHQKLSELGFADADYKDDDDK
modifications: C-terminal FLAG
significant proteins enriched versus APEX2 alone (HEK293T nuclei, FDR threshold of 5%): 1,450 proteins | CisBP transcription factors significantly enriched (HEK293T, iDAPT-MS): 79 transcription factors
